B1: G27S: point mutation G27S of SEQ ID NO:109 (protein)
chain: MAQGKVALEEHFAIPETLQDSAGFVPSDYWKELQHRLLDIQDTRLKLMDAHGIETMILSLNAPAVQAIPDRRKAIEIARRANDVLAEECAKRPDRFLAFAALPLQDPDAATEELQRCVNDLGFVGALVNGFSQEGDGQTPLYYDLPQYRPFWGEVEKLDVPFYLHPRNPLPQDSRIYDGHPWLLGPTWAFAQETAVHALRLMASGLFDEHPRLNIILGHMGEGLPYMMWRIDHRVAWVKLPPRYPAKRRFMDYFNENFHITTSGNFRTQTLIDAILEIGADRILFSTDWPFENIDHASDWFNATSIAEADRVKIGRTNARRLFKLDGA
modifications: Dicamba decarboxylase variant clone DC.4.032
B2: V235I: point mutation V235I of SEQ ID NO:109 (protein)
chain: B1 chain with S27G, V235I
modifications: Dicamba decarboxylase variant clone DC.4.032
B3: N61S: point mutation N61S of SEQ ID NO:109 (protein)
chain: B1 chain with S27G, N61S
modifications: Dicamba decarboxylase variant clone DC.4.032
B4: N61A: point mutation N61A of SEQ ID NO:109 (protein)
chain: B1 chain with S27G, N61A
modifications: Dicamba decarboxylase variant clone DC.4.032
B5: A328D: point mutation A328D of SEQ ID NO:109 (protein)
chain: B1 chain with S27G, A328D
modifications: Dicamba decarboxylase variant clone DC.4.032
B6: S298A: point mutation S298A of SEQ ID NO:109 (protein)
chain: B1 chain with S27G, S298A
modifications: Dicamba decarboxylase variant clone DC.4.032
B7: L38I: point mutation L38I of SEQ ID NO:109 (protein)
chain: B1 chain with S27G, L38I
modifications: Dicamba decarboxylase variant clone DC.4.032
B8: L240E: point mutation L240E of SEQ ID NO:109 (protein)
chain: B1 chain with S27G, L240E
modifications: Dicamba decarboxylase variant clone DC.4.032
B9: N302A: point mutation N302A of SEQ ID NO:109 (protein)
chain: B1 chain with S27G, N302A
modifications: Dicamba decarboxylase variant clone DC.4.032
B10: G327Q: point mutation G327Q of SEQ ID NO:109 (protein)
chain: B1 chain with S27G, G327Q
modifications: Dicamba decarboxylase variant clone DC.4.032
B11: A64G: point mutation A64G of SEQ ID NO:109 (protein)
chain: B1 chain with S27G, A64G
modifications: Dicamba decarboxylase variant clone DC.4.032
B12: N214Q: point mutation N214Q of SEQ ID NO:109 (protein)
chain: B1 chain with S27G, N214Q
modifications: Dicamba decarboxylase variant clone DC.4.032
B13: D42M: point mutation D42M of SEQ ID NO:109 (protein)
chain: B1 chain with S27G, D42M
modifications: Dicamba decarboxylase variant clone DC.4.032
B14: G52E: point mutation G52E of SEQ ID NO:109 (protein)
chain: B1 chain with S27G, G52E
modifications: Dicamba decarboxylase variant clone DC.4.032

Substitutions are numbered along the chain they refer to. Names may count otherwise.

This data set is described as follows: Saturation mutagenesis of SEQ ID NO:109, dicamba decarboxylation activity of point mutants. Particulars: rank of the point mutant among saturation mutagenesis variants of SEQ ID NO:109.
For B1, the “Variant Ranking by Activity” value worked out at 19.

Turning to B2, the “Variant Ranking by Activity” value is listed as 44.

Take B3: the “Variant Ranking by Activity” value was 7.

With B4, the “Variant Ranking by Activity” value is on record as 3.

As to B5, the “Variant Ranking by Activity” value stood at 13.

In the case of B6, the “Variant Ranking by Activity” value is listed as 21.

Turning to B7, the “Variant Ranking by Activity” value came to 30.

Regarding B8, the “Variant Ranking by Activity” value was 22.

B9: the “Variant Ranking by Activity” value was found to be 33.

As for B10, the “Variant Ranking by Activity” value is listed as 4.

For B11, the “Variant Ranking by Activity” value is 6.

In the case of B12, the “Variant Ranking by Activity” value came out at 41.

Consider B13, for which the “Variant Ranking by Activity” value amounted to 10.

On to B14, for which the “Variant Ranking by Activity” value is given as 1.

The record behind these values is patent publication US20140287419A1, “Compositions Having Dicamba Decarboxylase Activity and Methods of Use” (priority 2013, published 2014).
